Results of unrelated studies side by side (data: NIAID ChemDB).

All rows: whole-cell or culture tests; agent: Mycobacterium tuberculosis

A number after MIC or MFC names an inhibition level or a share of isolates. Inhibition is in % at the dose shown (toxicity tests: loss of growth or viability). Neighbouring rows are from separate reports. Blank or dashed fields: not listed here. MIC bound comes from a single tested concentration. ECn: concentration that inhibits the pathogen or its effect by n%.

smiles	strain	changes	cell line	read by	setting	endpoint	tested at	result
O=C(COc1ccc(Cl)cc1Cl)Nc1cccc2c1C(=O)c1ccccc1C2=O	H37Rv			BACTEC		inhibition	12.5 µg/mL	-13%
CO[C@H]1/C=C/O[C@@]2(C)Oc3c(C)c(O)c4c(O)c(c(/C=N/N5CCN(C)CC5)c(O)c4c3C2=O)NC(=O)/C(C)=C\C=C\[C@H](C)[C@H](O)[C@@H](C)[C@@H](O)[C@@H](C)[C@H](OC(C)=O)[C@@H]1C	ATCC 35820 (streptomycin-resistant)					MIC50		0.2 µM
O=C1C2=Nc3ccccc3C(O)(C(=O)O)N2c2ccccc21	H37Rv			resazurin		MIC bound		<6.25 µg/mL
Cn1c(NNc2nc(Nc3ccc(F)c(Cl)c3)nc(Nc3ccc(F)c(Cl)c3)n2)nc(-c2ccc(Cl)cc2)c(C#N)c1=O	H37Rv		VERO			MIC		>12.5 µg/mL
CCCCOc1cccc(NC(=O)OCCN2CCOCC2)c1	My 331/88					MIC		250 µM
CC(C)=CCC/C(C)=C/COc1ccc(/C=C2\C(=O)N(O)[C@@H](C)C(=O)N2O)cc1	PZA-R					MIC		>12.5 µg/mL
CN[C@@H]1[C@@H](O)[C@@H](O[C@@H]2[C@@H](O)[C@H](O[C@H]3O[C@H](CN)CC[C@H]3N)[C@@H](N)C[C@H]2N)OC[C@]1(C)O	H37Ra					Mean MIC		8 µg/mL
O=C1C2=C(c3ccccc31)C(c1ccc(Cl)cc1)N1C(=O)CCSC1=N2	H37Rv			BACTEC		MIC bound		>12.5 µg/mL
O=C(Oc1ccc(Cl)cc1C(=O)Nc1cccc(C(F)(F)F)c1)c1cnccn1	multidrug resistant Praha 1				14 d	MIC		1 µM
CCCOc1cccc(NC(=O)OCCN2CCCCC2)c1	My 331/88					MIC		125 µM
Clc1ccccc1C(c1ccccc1)(c1ccccc1)n1ccnc1	ATCC 35828 (pyrazinamide-resistant)					MIC50		≥100 µM
C[C@@H]1CN(c2c(F)c(N)c3c(=O)c(C(=O)O)cn(C4CC4)c3c2F)C[C@H](C)N1	H37Ra					Mean MIC		0.047 µg/mL
C/C=C1\C(=O)O[C@]23C=C[C@@H]4C(C(=O)OC)=CO[C@H](O[C@@H]12)[C@@H]43	MDR4 clinical isolate			MTT		MBC		3.9 µg/mL
C=CCNC(=S)N=Nc1c(O)[nH]c2ccc(C)cc12	H37Rv			broth dilution / resazurin		EC50		18.1 µg/mL
COc1ccc(-c2noc(C3=CC4(CCN(CCS(N)(=O)=O)CC4)c4ccccc43)n2)cc1	H37Rv			resazurin		MIC		>100 µM
O=C(Oc1ccc(Br)cc1C(=O)Nc1ccc(C(F)(F)F)cc1)c1cnccn1	multidrug resistant 7357/1998				14 d	MIC		0.125 µM
C1=C(c2nc(-c3cccnc3)no2)c2ccccc2C12CCN(CC1CCCO1)CC2	D-211	Drug-resistant		resazurin		MIC		1.56 µM
CO[C@H]1/C=C/O[C@@]2(C)Oc3c(C)c(O)c4c(=O)c(c5oc6cc(N7CCN(CC(C)C)CC7)cc(=O)c6nc5c4c3=C2O)NC(=O)/C(C)=C\C=C\[C@H](C)[C@H](O)[C@@H](C)[C@@H](O)[C@@H](C)[C@H](OC(C)=O)[C@@H]1C	2230 (rifampin-resistant)					MIC		0.1 µg/mL
COc1ccc(-c2noc(C3=CC4(CCN(CC5CCCO5)CC4)c4ccccc43)n2)cc1	TB375	Spiroindene-resistant		turbidity		MIC		3 µM
CO[C@@H]1C=C[C@@]23c4cc5c(cc4[C@H](O)O[C@H]2CN(C)[C@H]3C1)OCO5	H37Rv			BACTEC		MIC bound		>12.8 µg/mL
Cc1ccc2c(c1)c(N=NC(=S)Nc1ccc([N+](=O)[O-])cc1)c(O)n2C	H37Rv			broth dilution / resazurin		EC90		>100 µg/mL
CCCCCCCOc1cccc(NC(=O)OCC[NH+]2CCCC2)c1	My 331/88					MIC		32 µM
CN(C)c1ccc(N=C2C=CC(=O)C(Cl)=C2)cc1	H37Rv			BACTEC		inhibition	12.5 µg/mL	-1%
Clc1ccc(-c2c(C(c3ccccc3)n3ccnc3)cnn2-c2ccccc2)cc1	ATCC 35822 (isoniazid-resistant)					MIC50		≥100 µM
Cc1ccc(NC(=O)C(F)(F)F)cc1F	H37Rv			BACTEC		MIC bound		>12.5 µg/mL
CCNC(=S)N=Nc1c(O)n(C)c2ccc(OC(F)(F)F)cc12	H37Rv			broth dilution / resazurin		EC50		5.987 µg/mL
COc1ccc2c(n1)Sc1c(Cl)nc(N)nc1N2	H37Rv			BACTEC		inhibition	12.5 µg/mL	-17%
Cn1c(NNc2nc(NCc3ccccc3)nc(NCc3ccccc3)n2)nc(-c2ccc(Cl)cc2)c(C#N)c1=O	H37Rv					inhibition	12.5 µg/mL	84%
CCn1c2ccc(C(=O)CCCN(C)C)cc2c2cc(C(=O)CCCN(C)C)ccc21.O=C(O)/C=C\C(=O)O.O=C(O)/C=C\C(=O)O	H37Rv			BACTEC		inhibition	12.5 µg/mL	4%
Cn1c(NNc2nc(Nc3cccc([N+](=O)[O-])c3)nc(Nc3cccc([N+](=O)[O-])c3)n2)nc(-c2ccc(Cl)cc2)c(C#N)c1=O	H37Rv		VERO			MIC		>12.5 µg/mL
CO[C@H]1/C=C/O[C@@]2(C)Oc3c(C)c(O)c4c(O)c(c(/C=N/N5CCN(C)CC5)c(O)c4c3C2=O)NC(=O)/C(C)=C\C=C\[C@H](C)[C@H](O)[C@@H](C)[C@@H](O)[C@@H](C)[C@H](OC(C)=O)[C@@H]1C	19000	Rifampicin-resistant		resazurin		MIC		>4.8 µM
CCCOc1ccccc1NC(=O)OCCN1CCCCCC1	My 331/88					MIC		125 µM
CCC1Cn2cc([N+](=O)[O-])nc2O1	H37Rv-7A2 (PA-824-resistant)					MIC		>100 µM
Nc1ccc(C(=O)O)c(O)c1	H37Rv					Mean MIC		1.25 µg/mL
CN[C@@H]1[C@H](O[C@H]2[C@H](O[C@H]3[C@H](O)[C@@H](O)[C@H](N=C(N)N)[C@@H](O)[C@@H]3N=C(N)N)O[C@@H](C)[C@]2(O)C=O)O[C@@H](CO)[C@H](O)[C@H]1O	ATCC 35828 (pyrazinamide-resistant)					MIC50		0.1 µM
CO[C@H]1/C=C/O[C@@]2(C)Oc3c(C)c(O)c4c(O)c(c5c(c4c3C2=O)NC2(CCN(CC(C)C)CC2)N=5)=NC(=O)/C(C)=C\C=C\[C@H](C)[C@H](O)[C@@H](C)[C@@H](O)[C@@H](C)[C@H](OC(C)=O)[C@@H]1C	61 strains					MIC		0.015 µg/mL
Fc1ccc(-c2c(C(c3ccccc3)n3ccnc3)cnn2-c2ccccc2)cc1	ATCC 35820 (streptomycin-resistant)					MIC90		≥100 µM
C=CCNC(=S)N=Nc1c(O)n(C)c2ccc(C)cc12	H37Rv			broth dilution / resazurin		EC90		>100 µg/mL
NNC(=O)c1ccncc1	XDR			resazurin		MIC		>100 µg/mL
O=c1[nH]cc(N=Nc2ccc(S(=O)(=O)Nc3ccccn3)cc2)cc1O	H37Rv			BACTEC		MIC bound		>12.5 µg/mL
c1ccc(-c2c(C(c3ccccc3)n3ccnc3)cnn2-c2ccccc2)cc1	ATCC 35828 (pyrazinamide-resistant)					MIC90		>100 µM
Cc1c(CO)cc(Nc2ccc(Nc3cc(CO)c(C)c(CO)c3)c3c2C(=O)c2ccccc2C3=O)cc1CO	H37Rv			BACTEC		MIC bound		>12.5 µg/mL
Cn1c(NNc2nc(Nc3ccc(Cl)cc3Cl)nc(Nc3ccc(Cl)cc3Cl)n2)nc(-c2ccccc2)c(C#N)c1=O	H37Rv					MIC		>12.5 µg/mL
O=C(Oc1ccc(Cl)cc1C(=O)Nc1ccc(C(F)(F)F)cc1)c1cnccn1	multidrug resistant 9449/2006				21 d	MIC		0.25 µM
COc1cc(C=CC(=O)c2sc(Nc3ccccc3)nc2C)ccc1O	H37Rv			resazurin		inhibition	6.25 µg/mL	17%
O=C(O)c1cnccn1	T7505					MIC		480 µg/mL
CCCCN(CCCC)CCNc1ccc(C)c2sc3ccc(Cl)cc3c(=O)c12	H37Rv			BACTEC		MIC		≥12.5 µg/mL
CC[C@@H](CO)NCCN[C@@H](CC)CO	19000	Rifampicin-resistant		resazurin		MIC		1.2 µM
COc1ccc(Nc2nc(NNc3nc(-c4ccc(Cl)cc4)c(C#N)c(=O)n3C)nc(Nc3ccc(OC)cc3)n2)cc1	H37Rv					inhibition	12.5 µg/mL	52%
CO[C@H]1/C=C/O[C@@]2(C)Oc3c(C)c(O)c4c(=O)c(c5oc6cc(N7CCN(C(C)C)CC7)cc(=O)c6nc5c4c3=C2O)NC(=O)/C(C)=C\C=C\[C@H](C)[C@H](O)[C@@H](C)[C@@H](O)[C@@H](C)[C@H](OC(C)=O)[C@@H]1C	2624 (rifampin-sensitive)					MIC		0.006 µg/mL
CCCCCCCCCOc1ccccc1NC(=O)OCCN(C)C	My 331/88					MIC		4 µM
COc1ccccc1Nc1nc(NNc2nc(-c3ccccc3)c(C#N)c(=O)n2C)nc(Nc2ccccc2OC)n1	H37Rv					inhibition	12.5 µg/mL	63%
O=C(Oc1ccc(Cl)cc1C(=O)Nc1ccc(Cl)c(Cl)c1)c1cnccn1	multidrug resistant 7357/1998				14 d	MIC		0.125 µM
CNc1ccc2nc3ccc(=[N+](C)C)cc-3sc2c1.[Br-]	H37Rv			BACTEC		MIC bound		>12.5 µg/mL
CC1COc2c(N3CCN(C)CC3)c(F)cc3c(=O)c(C(=O)O)cn1c23	H37Ra					Mean MIC		0.75 µg/mL
Cc1ccc(Nc2nc(NNc3nc(-c4ccccc4)c(C#N)c(=O)n3C)nc(Nc3ccc(C)cc3C)n2)c(C)c1	H37Rv		VERO			inhibition	12.5 µg/mL	95%
O=C(Oc1cc(Cl)ccc1C(=O)Nc1ccc(C(F)(F)F)cc1)c1cnccn1	multidrug resistant 7357/1998				21 d	MIC		0.5 µM
CCCCCCCCCOc1ccc(NC(=O)OCC[NH+]2CCCC2)cc1	My 331/88					MIC		16 µM
CC1COc2c(N3CCN(C)CC3)c(F)cc3c(=O)c(C(=O)O)cn1c23	ATCC 35837 (ethambutol-resistant)					MIC50		1.1 µM
O=[N+]([O-])c1cn2c(n1)OC[C@@H](OCc1ccc(OCc3ccccc3)cc1)C2	H37Rv-14A1 (PA-824-resistant)					MIC		>100 µM
COC(=O)C(=O)C(C(=O)OC)C(=O)C(=O)Nc1cc(Cl)c(C)cc1S(=O)(=O)O	H37Rv			BACTEC		MIC bound		>12.5 µg/mL
O=C(Oc1cc(Cl)ccc1C(=O)Nc1cccc(Br)c1)c1cnccn1	H37Rv 331/88				14 d	MIC		2 µM
Cc1ccc(-c2noc(C3=CC4(CCN(CC5CCCO5)CC4)c4ccccc43)n2)cn1	TB377	Spiroindene-resistant		turbidity		MIC		15.5 µM
CN1N=CSC12C(=O)N(c1ccccc1)C(=O)N2c1ccccc1	H37Rv			BACTEC		inhibition	12.8 µg/mL	6%
Oc1c(N=NC(=S)Nc2ccccc2)c2cc(OC(F)(F)F)ccc2n1CN1CCOCC1	H37Rv			broth dilution / resazurin		EC90		>100 µg/mL
O=C1/C(=N/O)CC(c2ccccc2)N1Br	H37Rv			BACTEC		inhibition	12.8 µg/mL	17%
Fc1ccc(-c2c(C(c3ccccc3)n3ccnc3)cnn2-c2ccc(F)cc2F)cc1	ATCC 27294					MIC90		>100 µM
COc1cc(-c2nn(CN3CCN(Cn4nc(-c5cc(OC)c(OC)c(OC)c5)oc4=S)CC3)c(=S)o2)cc(OC)c1OC	H37Rv			resazurin		MIC bound		>6.25 µg/mL
CCCOc1ccccc1NC(=O)OCC[NH+]1CCCC1	My 331/88					MIC		1000 µM
O=C1OC(c2ccccc2)=N/C1=C\c1cc2c(cc1[N+](=O)[O-])OCO2	H37Rv			BACTEC		MIC bound		>12.5 µg/mL
Cn1c(O)c(N=NC(=S)Nc2ccc([N+](=O)[O-])cc2)c2cc(OC(F)(F)F)ccc21	H37Rv			broth dilution / resazurin		EC90		>100 µg/mL
CCO/C=C1\N=C(C(Cl)c2ccccc2)OC1=O	H37Rv			BACTEC		MIC bound		>12.5 µg/mL
Clc1ccc(-c2c(C(c3ccccc3)n3ccnc3)cnn2-c2ccc(Cl)cc2)cc1	ATCC 27294					MIC50		6.1 µM
CCCCCCOc1ccccc1NC(=O)OCCN1CCOCC1	My 331/88					MIC		62.5 µM